Measured values as given in patent publication US20100143416.

Target: T1, human neutrophil protein 1 (HNP-1), synthetic
T1 chain: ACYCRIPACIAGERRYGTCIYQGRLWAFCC

B1: Bacillus anthracis lethal factor (LF), recombinant (protein)
chain: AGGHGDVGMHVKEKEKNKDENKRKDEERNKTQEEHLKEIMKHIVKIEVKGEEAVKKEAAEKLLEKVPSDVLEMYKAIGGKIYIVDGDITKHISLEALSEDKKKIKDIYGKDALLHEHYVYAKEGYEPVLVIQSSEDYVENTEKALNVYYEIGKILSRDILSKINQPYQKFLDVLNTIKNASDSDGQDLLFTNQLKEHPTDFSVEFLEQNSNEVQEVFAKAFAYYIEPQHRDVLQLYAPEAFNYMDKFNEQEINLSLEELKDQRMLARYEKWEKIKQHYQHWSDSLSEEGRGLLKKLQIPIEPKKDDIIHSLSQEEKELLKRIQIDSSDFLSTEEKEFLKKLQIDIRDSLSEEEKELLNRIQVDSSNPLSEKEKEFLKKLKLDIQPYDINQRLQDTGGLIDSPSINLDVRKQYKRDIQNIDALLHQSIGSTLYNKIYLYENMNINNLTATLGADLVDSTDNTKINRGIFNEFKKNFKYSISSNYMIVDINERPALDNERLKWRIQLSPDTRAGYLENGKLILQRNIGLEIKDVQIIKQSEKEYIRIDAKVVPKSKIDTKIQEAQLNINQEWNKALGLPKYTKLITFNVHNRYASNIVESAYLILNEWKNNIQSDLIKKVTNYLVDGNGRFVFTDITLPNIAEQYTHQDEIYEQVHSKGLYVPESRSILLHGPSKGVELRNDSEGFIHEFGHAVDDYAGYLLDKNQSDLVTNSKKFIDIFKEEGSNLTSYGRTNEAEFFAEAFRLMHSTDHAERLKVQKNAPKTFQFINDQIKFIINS
  in vitro cleavage of S35-labeled MKK3b by LF (SDS-PAGE and autoradiography): in the presence of 10 µM HNP-1, proteolysis was efficiently inhibited
